Data source: PubChem BioAssay AID504761 (Drosophila RNAi Screening Center, 2011)
Purpose: 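Fly genes whose silencing reduces dengue virus type 2 infection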 (primary screen). System: D.Mel-2 cells from Drosophila. Reagents: long dsRNA against Drosophila genes. Challenge: infection with dengue virus type 2; dose and infection time not stated. Detection: 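Cells stained for dengue envelope protein and imaged; percent of infected cells per well on duplicate plates, ranked by infection, with stained nuclei counted for cell number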. Direction: infection score: higher = more virus-infected cells; cell count: higher = more cells in the well. Hit rule: 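Very low infection ranking in both replicate wells (chance probability at most 0.065), then a retest showing infection dropped 1.5-fold or more at p below 0.05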. Meaning of the calls: active = confirmed: knock-down lowers infection; inactive = not picked or not confirmed.
In all, the deposit lists about 22,000 reagents; shown is a random part of those that have a named target and a result. In the full data, 116 (0.52%) got an active call. 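Calls depend on retest data that are not deposited; infection was ranked per plate without normalising between plates; the unit of the infection score is not given.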 Raw values vary from plate to plate and are shown uncorrected. A plus sign joins genes that one reagent is predicted to hit. Not given: the amount of reagent, the time to read-out.

| Gene | dsRNA | infection score, replicate 1 | infection score, replicate 2 | cell count, replicate 1 | cell count, replicate 2 | Call |
| --- | --- | --- | --- | --- | --- | --- |
| CG5065 | DRSC06912 | 16 | 6 | 4514 | 6716 | inactive |
| snoRNA:U31:54Ec + snoRNA:snR38:54Eb + snoRNA:U27:54Eb + 8 more | DRSC06458 | 26.4 | 11.8 | 5748 | 6734 | inactive |
| mbl | DRSC23188 | 1.92 | 7.66 | 6098 | 6358 | inactive |
| mbl | DRSC28319 | 6.52 | 6.95 | 5769 | 1684 | inactive |
| CG18682 (retired record) | DRSC15373 | 1.23 | 2.84 | 1959 | 7085 | inactive |
| CG18682 (retired record) | DRSC15374 | 5.7 | 0.92 | 2035 | 6717 | inactive |
| yip3 | DRSC04724 | 9.15 | 10.5 | 6076 | 6173 | inactive |
| Setx | DRSC10859 | 3.23 | 5.04 | 5515 | 5650 | inactive |
| CG30039 | DRSC21794 | 6.59 | 5.29 | 6839 | 6311 | inactive |
| CG30039 | DRSC29391 | – | – | 399 | 401 | inactive |
| RhoGAP102A | DRSC17145 | – | 14.5 | 352 | 2336 | inactive |
| CG14817 | DRSC18547 | – | 12.7 | 347 | 1712 | inactive |
| CG9993 | DRSC04599 | 5.85 | 8.26 | 6567 | 7042 | inactive |
| CG4022 | DRSC10395 | 2.6 | 2.56 | 6039 | 6203 | inactive |
| CG4022 | DRSC27317 | 5.93 | 11.8 | 6022 | 6138 | inactive |
| CG1486 | DRSC20508 | 1.71 | 1.41 | 6827 | 6689 | inactive |
| CG1486 | DRSC28958 | 10.4 | 8.82 | 1721 | 2358 | inactive |
| CG6893 | DRSC10742 | 6.21 | 2.89 | 6550 | 6568 | inactive |
| CG2120 | DRSC18207 | 1.47 | 3.33 | 6584 | 6487 | inactive |
| CG2120 | DRSC26944 | 7.82 | 3.38 | 6497 | 6548 | inactive |
| Dnaaf5 | DRSC13032 | 8.03 | 4.94 | 5905 | 5872 | inactive |
| Dora | DRSC19614 | 1.07 | 3.91 | 5816 | 4726 | inactive |
| Dora | DRSC19781 | 5.17 | 1.79 | 5740 | 5975 | inactive |
| Dora | DRSC20034 | 2.59 | 0.23 | 4525 | 6201 | inactive |
| Dora | DRSC20035 | 7.24 | 2.22 | 2874 | 5800 | inactive |
| Dora | DRSC27055 | 11.4 | 2.08 | 6758 | 6884 | inactive |
| Dora | DRSC28428 | 15.3 | 3.81 | 4582 | 1917 | inactive |
| CG14654 (retired record) | DRSC12240 | 1.85 | 2.84 | 6227 | 6439 | inactive |
| CG14654 (retired record) | DRSC26836 | 3.17 | 3.33 | 6285 | 2403 | inactive |
| CG9776 | DRSC12127 | 10.5 | 20 | 5809 | 5904 | inactive |
| CG33258 | DRSC09415 | 4.94 | 2.98 | 5769 | 5714 | inactive |
| CG33258 | DRSC23590 | 2.28 | 0.91 | 6013 | 6047 | inactive |
| kri | DRSC10515 | 2.73 | 1.72 | 6952 | 6630 | inactive |
| CG11241 | DRSC11641 | 10.3 | 2.4 | 3969 | 6620 | inactive |
| CG11241 | DRSC22165 | 6.54 | 13.1 | 5336 | 6194 | inactive |
| CG8738 | DRSC07256 | 5.68 | 13.3 | 6353 | 5883 | inactive |
| Cnx14D | DRSC20214 | 13.9 | 15.5 | 6465 | 5425 | inactive |
| Cnx14D | DRSC25425 | 11.6 | 10.3 | 6660 | 4624 | inactive |

Only “infection score, replicate 2”, for 5 of the entries above:
CG2120 [DRSC18207] = 3.33
CG2120 [DRSC26944] = 3.38
Dnaaf5 [DRSC13032] = 4.94
Dora [DRSC19614] = 3.91
Dora [DRSC19781] = 1.79

Continued.
| Gene | dsRNA | infection score, replicate 1 | infection score, replicate 2 | cell count, replicate 1 | cell count, replicate 2 | Call |
| --- | --- | --- | --- | --- | --- | --- |
| CG11368 | DRSC17778 | 11.8 | 4.57 | 5439 | 6978 | inactive |
| SCCRO | DRSC10844 | 2.47 | 16.6 | 6589 | 5825 | inactive |
| SCCRO | DRSC29998 | 24.1 | 16.6 | 6128 | 6686 | inactive |
| CG18273 | DRSC18150 | 8.91 | 6.68 | 1942 | 6808 | inactive |
| CG18273 | DRSC18505 | 3.8 | 6.24 | 5717 | 6685 | inactive |
| CG9717 | DRSC16543 | – | 0.27 | 338 | 375 | inactive |
| sog | DRSC20379 | 5.03 | 8.62 | 6069 | 5977 | inactive |
| Usp2 | DRSC20590 | 2.91 | 6.63 | 6399 | 6441 | inactive |
| Usp2 | DRSC20632 | 1.11 | 3 | 6557 | 6908 | inactive |
| Usp2 | DRSC20633 | 8.6 | 3.85 | 6154 | 5165 | inactive |
| Usp2 | DRSC27066 | 9.93 | 4.55 | 6670 | 6617 | inactive |
| CG34175 | DRSC00424 | 4.85 | 2.39 | 6593 | 6816 | inactive |
| prage | DRSC17957 | – | – | 307 | 249 | inactive |
| prage | DRSC18490 | – | 13.2 | 339 | 4406 | inactive |
| prage | DRSC18497 | – | – | 362 | 367 | inactive |
| Peritrophin-A | DRSC20570 | 9.1 | 3.49 | 6463 | 6274 | inactive |
| Ir56d | DRSC06590 | 4.27 | 2.84 | 6090 | 6482 | inactive |
| Ir56d | DRSC28383 | 6.35 | 17.7 | 2851 | 3768 | inactive |
| CG31249 | DRSC16248 | 2.17 | 0.44 | 6207 | 6434 | inactive |
| spri | DRSC17984 | 8.09 | 19.8 | 5671 | 5246 | inactive |
| spri | DRSC17985 | 5.03 | 11.8 | 5442 | 5764 | inactive |
| spri | DRSC17986 | 4.64 | 22.7 | 5599 | 5797 | inactive |
| spri | DRSC17989 | 1.85 | 4.75 | 6102 | 6131 | inactive |
| spri | DRSC22927 | 0.89 | 2.09 | 6618 | 7314 | inactive |
| spri | DRSC28814 | 31.2 | 25.1 | 5716 | 3158 | inactive |
| Galphas | DRSC04616 | 14.7 | 32.7 | 6235 | 5602 | inactive |
| ALiX | DRSC14564 | 7.16 | 7.66 | 6764 | 6721 | inactive |
| ALiX | DRSC27006 | 16.1 | 10 | 6684 | 6694 | inactive |
| CG9372 | DRSC11068 | 2.41 | 3.21 | 6515 | 6051 | inactive |
| PPP4R2r | DRSC18695 | 12.5 | 18.1 | 4944 | 3857 | inactive |
| PPP4R2r | DRSC21503 | 1.31 | 3.21 | 5899 | 6389 | inactive |
| PPP4R2r | DRSC27825 | 5.83 | 32.1 | 5339 | 2961 | inactive |
| hpRNA:CR32205 + CG33255 (retired record) | DRSC28015 | 13.9 | 17.9 | 5457 | 6511 | inactive |
| dsf | DRSC03524 | 2.9 | 8.15 | 6336 | 1631 | inactive |
| dsf | DRSC23510 | 3.77 | 6.49 | 6665 | 6412 | inactive |
| spg | DRSC14373 | 1.05 | 0.39 | 6666 | 6953 | active |
| spg | DRSC14881 | 4.02 | 1.1 | 6070 | 6607 | inactive |
